Anti-infective test results gathered from many reports (values: NIAID ChemDB through PubChem).

Common to all: whole-cell or culture tests; agent: Mycobacterium tuberculosis

An empty or dashed field is not shown.

SMILES,cells,measure,tested at,method,strain,value
O=c1nc2c(ncn2Cc2ccccc2)c(C#Cc2ccccc2)n1Cc1ccccc1,VERO,EC50,-,-,H37Rv,<12.5 µg/mL
COc1ccc(CSc2nc3ccc(C)cc3[nH]2)cc1,-,MIC,-,-,MY 332/88,>32 µM
COc1cc(C2=NN(C(=O)COc3ccc4ccccc4c3)C3CCCC23)c(C)cc1OCC(=O)O,-,MIC,-,-,Isoniazid-resistant,>6.25 µg/mL
CCCN1C(=O)CS/C1=N/NC(=O)c1c(C)nc2sccn12,-,MIC,-,-,H37Rv,>200 µg/mL
Cn1c(C(=O)NN)cc2cc(OCc3ccccc3)ccc21,-,MIC bound,-,BACTEC,H37Rv,>12.5 µg/mL
C[C@H]1[C@H](C)CC[C@]2(C(=O)O)CC[C@]3(C)C(CC[C@@H]4[C@@]5(C)C[C@H](O)CC(C)(C)[C@@H]5CC[C@]43C)[C@H]12,-,MIC,-,resazurin,INH-R (ATCC 35822),25 µg/mL
O=C(Nc1ccc(C(F)(F)F)cc1)C1(c2cccs2)CCOCC1,-,MIC99,-,turbidity,CDC1551,235 µM
FC(F)(F)c1nn2cc(C34CC5CC(CC(C5)C3)C4)nc2s1,-,MIC,-,resazurin,H37Rv,12 µM
O=C(Nc1ccc(Oc2ccccc2)cc1)C1(c2cccs2)CCOCC1,-,EC50,-,turbidity,CDC1551,34.41 µM
O=C(/N=C/c1cccc(Cl)c1)NCCCN1c2ccccc2Sc2ccccc21,-,inhibition,50 µg/mL,agar,H37Rv,34%
C/C=C/NC(=S)NNC(=O)c1c(C)nc2sccn12,-,MIC,-,-,H37Rv,>200 µg/mL
CO[C@H]1/C=C/O[C@@]2(C)Oc3c(C)c(O)c4c(O)c(c(/C=N/N5CCN(C)CC5)c(O)c4c3C2=O)NC(=O)/C(C)=C\C=C\[C@H](C)[C@H](O)[C@@H](C)[C@@H](O)[C@@H](C)[C@H](OC(C)=O)[C@@H]1C,-,MIC,-,fluorescence,H37Rv,0.01 µM
Cc1cn(C2CC(N=[N+]=[N-])C(COC(=O)C3(O)CC[C@H]4[C@@H]5CCC6=CC(=O)CC[C@]6(C)[C@H]5C(O)C[C@@]43C)O2)c(=O)[nH]c1=O,-,inhibition,12.5 µg/mL,BACTEC,H37Rv,0%
O=C(COc1cnccn1)N/N=c1\scc(-c2ccc(O)cc2)n1-c1ccc(Cl)cc1,-,MIC,-,-,H37Rv,24 µg/mL
O=[N+]([O-])c1ccc(N=N/C(=N\Nc2ccccc2)c2nc3ccccc3[nH]2)c([N+](=O)[O-])c1,-,MIC bound,-,resazurin,H37Rv,>6.25 µg/mL
CO[C@H]1/C=C/O[C@@]2(C)Oc3c(C)c(O)c4c(O)c(c(/C=N/N5CCN(C)CC5)c(O)c4c3C2=O)NC(=O)/C(C)=C\C=C\[C@H](C)[C@H](O)[C@@H](C)[C@@H](O)[C@@H](C)[C@H](OC(C)=O)[C@@H]1C,-,MIC,-,-,H37Rv,0.5 µg/mL
CC(C)COc1ccc(NC(=S)Nc2ccc(-c3ccccn3)cc2)cc1,-,MIC,-,-,H37Rv,78 µg/mL
O=[N+]([O-])c1ccc(N=NNc2ccc([N+](=O)[O-])cc2Cl)c(Cl)c1,-,EC50,-,luminescence,H37Ra-lux,1.27 µM
CCCCn1c(-c2ccc(Cl)cc2)cs/c1=N\NC(=O)COc1cnccn1,-,MIC,-,-,H37Rv,7.6 µg/mL
CCOC(=O)Nc1cc2c(c(N)n1)N=C(c1ccc(OC)cc1)CN2,-,inhibition,6.25 µg/mL,resazurin,H37Rv,44%
CCCNC(=S)NNC(=O)c1c(C)nc2sccn12,-,MIC,-,-,H37Rv,>200 µg/mL
COc1ccc2c(c1)CCc1c-2nc(N)nc1-c1nc(N)nc2c1CCc1cc(OC)ccc1-2,-,inhibition,12.5 µg/mL,BACTEC,H37Rv,0%
Nc1ccc(CNC(=O)c2nc3cc(C(F)(F)F)ccc3s2)cc1,-,MIC99,-,-,H37Rv (ATCC 27294),50 µg/mL
CO[C@H]1/C=C/O[C@@]2(C)Oc3c(C)c(OC(C)=O)c4c(c3C2=O)C(=O)C=C(NC(=O)/C(C)=C\C=C\[C@H](C)[C@H](O)[C@@H](C)[C@@H](O)[C@@H](C)[C@H](OC(C)=O)[C@@H]1C)C4=O,VERO,MIC,-,BACTEC,H37Rv,0.1 µg/mL
CO[C@H]1/C=C/O[C@@]2(C)Oc3c(C)c(O)c4c(O)c(c(/C=N/N5CCOCC5)c(O)c4c3C2=O)NC(=O)/C(C)=C\C=C\[C@H](C)[C@H](O)[C@@H](C)[C@@H](O)[C@@H](C)[C@H](OC(C)=O)[C@@H]1C,-,MIC,-,-,H37Rv,0.2 µg/mL
COC1(C)CNCC(C)(C)NC(=O)C(C)(OC)CNCC(C)(C)NC1=O,-,MIC bound,-,resazurin,H37Rv,>6.25 µg/mL
O=[N+]([O-])c1ccc(-c2nn3cc(C45CC6CC(CC(C6)C4)C5)nc3s2)cc1,-,MIC,-,resazurin,H37Rv,28.7 µM
[N-]=[N+]=NC1OC(=O)C(Cl)=C1N=P(c1ccccc1)(c1ccccc1)c1ccccc1,-,inhibition,12.5 µg/mL,BACTEC,H37Rv,-9%
COc1ccc(-c2nn3cc(C45CC6CC(CC(C6)C4)C5)nc3s2)cc1,-,MIC,-,resazurin,H37Rv,8.5 µM
CCN(CC)C(=S)[S][Sn]([S]C(=S)N(CC)CC)([c]1ccccc1)[c]1ccccc1,-,MIC,-,-,CS-R,1.6 µg/mL
CCOC(=O)c1ccc(-c2ccc3sc4ccccc4c3c2)nc1C,-,MIC,-,-,H37Rv,25 µg/mL
O=C1c2cc([N+](=O)[O-])ccc2-n2c1nc1ccc(Cl)cc1c2=O,-,MIC,-,-,MDR 10038,<1 µg/mL
O[C@H](c1cc(C(F)(F)F)nc2c(C(F)(F)F)cccc12)[C@@H]1CCCCN1,-,MIC,-,resazurin,H37Rv,20 µM
C[C@H]1COC2(CCN(c3nc(=O)c4cc(C(F)(F)F)cc(-n5cc(Cc6ccccc6)nn5)c4s3)CC2)O1,-,MIC,-,resazurin,H37Rv,>1 µM
Cc1ccc(NC(=O)C2(c3cccs3)CCOCC2)cc1C,-,EC50,-,turbidity,CDC1551,200 µM
O=C(/N=C/c1cccc(O)c1)NCCCN1c2ccccc2Sc2ccccc21,-,inhibition,50 µg/mL,agar,H37Rv,52%
CC1(C)CCc2c(c3ccccc3c3nc(-c4ccc(C#N)cc4)oc23)O1,-,MIC,-,resazurin,ATCC 35822,8.8 µg/mL
O=C(NCCCN1c2ccccc2Sc2ccccc21)N1C(=O)/C(=C\c2ccccc2)SC1c1ccccc1,-,inhibition,50 µg/mL,agar,H37Rv,45%
CCCCn1c(-c2ccc(O)cc2)cs/c1=N\NC(=O)COc1cnccn1,-,MIC,-,-,H37Rv,7.9 µg/mL
CC(C)(C)OC(=O)N1CCN(c2ccc3c(c2)-n2c(nc4ccccc4c2=O)C3=O)CC1,-,MIC,-,-,H37Rv,>5 µg/mL
Cc1cc(NC(=O)C2(c3cccs3)CCOCC2)ccc1Br,-,EC50,-,turbidity,CDC1551,200 µM
O=[N+]([O-])c1cc2ncccc2c2ncccc12,-,MIC,-,-,RMP-R,6.3 µg/mL
CC1(C)CCc2c(c3ccccc3c3nc(-c4cccc(C#N)c4)oc23)O1,-,MIC,-,resazurin,ATCC 35338,17.6 µg/mL
O=C1c2ccccc2-n2c1nc1ccc(Br)cc1c2=O,-,MIC,-,-,H37Rv,1.3 µg/mL
CCCCOC(=O)c1ccc2nccnc2c1,-,MIC,-,visual reading,H37Ra,50 µM
C=CCC1OC(=O)CCNC(=O)C(C)N(C)C(=O)C(C(C)C)N(C)C(=O)C(C(C)CC)NC(=O)C2CCCN2C1=O,-,MIC,-,BACTEC,H37Rv,≥12.5 µg/mL
CC1(C)CCc2c(c3ccccc3c3nc(-c4ccccc4C#N)oc23)O1,-,MIC,-,resazurin,ATCC 35338,17.6 µg/mL
CC(C)c1ccc2c(c1)C=C1OC(=O)[C@]3(C)CCC[C@@]2(C)C13,-,inhibition,12.5 µg/mL,BACTEC,H37Rv,0%
CC(C)n1c(-c2ccccc2)cs/c1=N\NC(=O)COc1cnccn1,-,MIC,-,-,H37Rv,18 µg/mL
Cc1cccc2nc3n(c(=O)c12)-c1ccccc1C3=O,-,MIC,-,-,H37Rv,2 µg/mL
CC[C@@H](CO)NCCN[C@@H](CC)CO,-,MIC,-,resazurin,H37Ra,8 µM
CN(C)CCN(C)P12(Oc3ccccc3O1)Oc1c(Cl)c(Cl)c(Cl)c(Cl)c1O2,-,MIC bound,-,BACTEC,H37Rv,>12.5 µg/mL
Cc1ccc2nc(SCc3cccc([N+](=O)[O-])c3)[nH]c2c1,-,MIC,-,-,MY 332/88,62 µM
CC1(C)CC(=O)c2ccc(-c3ccc4ccccc4c3)nc2C1,-,MIC,-,-,H37Rv,1.56 µg/mL
Cc1ccc(C2(C)OC(CCl)CS2)c(C)c1,-,MIC bound,-,BACTEC,H37Rv,>12.5 µg/mL
CCCCCCCCCCN(CCCCCCCCCC)S[C@@H]1O[C@@H]([C@H](O)CO)[C@H](O)[C@H]1O,-,MIC,-,-,-,<5 µg/mL
O=C(NCCOC(=O)CCCCCCCCC(=O)OCCNC(=O)NC(=O)c1cn(Cc2ccccc2)c(=O)[nH]c1=O)NC(=O)c1cn(Cc2ccccc2)c(=O)[nH]c1=O,-,MIC bound,-,BACTEC,H37Rv,>12.5 µg/mL
c1ccc(Cc2nn3cc(C45CC6CC(CC(C6)C4)C5)nc3s2)cc1,-,MIC,-,resazurin,H37Rv,30.7 µM
CCN(CCO)CCNc1ccc(C)c2sc3c(Cl)cccc3c(=O)c12,-,inhibition,12.5 µg/mL,BACTEC,H37Rv,100%
CO[C@H]1/C=C/O[C@@]2(C)Oc3c(C)c(O)c4c(O)c(c(/C=N/N5CCN(C)CC5)c(O)c4c3C2=O)NC(=O)/C(C)=C\C=C\[C@H](C)[C@H](O)[C@@H](C)[C@@H](O)[C@@H](C)[C@H](OC(C)=O)[C@@H]1C,-,MIC,-,resazurin,H37Rv,<0.1 µM
CO/N=C/c1c2c(O)c3c(O)c(C)c4c(c3c1O)C(=O)[C@@](C)(O/C=C/[C@H](OC)[C@@H](C)[C@@H](OC(C)=O)[C@H](C)[C@H](O)[C@H](C)[C@@H](O)[C@@H](C)/C=C/C=C(/C)C(=O)N2)O4,-,MIC,-,-,H37Rv,0.1 µg/mL
O=C(CCCCCCCCC(=O)N/N=C/c1ccccc1O)N/N=C/c1ccccc1O,-,MIC,-,BACTEC,H37Rv,≥12.5 µg/mL
CCCCN1C(=O)CS/C1=N/NC(=O)c1c(C)nc2sccn12,-,MIC,-,-,H37Rv,>200 µg/mL
O=C(COc1cnccn1)N/N=c1\scc(-c2ccc(Br)cc2)n1-c1ccc(Cl)cc1,-,MIC,-,-,H37Rv,16 µg/mL
Cc1cn([C@@H]2C[C@H](O)[C@@H](CNC(=S)Nc3ccc(Cl)c(C(F)(F)F)c3)O2)c(=O)[nH]c1=O,-,inhibition,6.25 µg/mL,resazurin,H37Rv,34%
O=c1nc2c(ncn2Cc2ccccc2)c(-c2ccco2)n1Cc1ccccc1,-,MIC,-,-,H37Rv,>12.5 µg/mL
CCn1cc(C(=O)O)c(=O)c2cc(F)c(N3CCNCC3)nc21,-,MIC bound,-,BACTEC,H37Rv,≤12.5 µg/mL
C[C@H]1COC2(CCN(c3nc(=O)c4cc(C(F)(F)F)cc(N)c4s3)CC2)O1,-,MIC,-,resazurin,H37Rv,>1 µM
NNC(=O)c1ccncc1,-,MIC,-,-,H37Rv,0.05 µg/mL
O=C(/N=C/c1cccc(Br)c1)NCCCN1c2ccccc2Sc2ccccc21,-,inhibition,25 µg/mL,agar,H37Rv,27%
C[C@H]1COC2(CCN(c3nc(=O)c4cc(C(F)(F)F)cc(C(=O)O)c4s3)CC2)O1,-,MIC99,-,resazurin,H37Rv,0.001 µg/mL
Cc1ccc2nc(SCc3cccc(F)c3)[nH]c2c1,-,MIC,-,-,MY 332/88,32 µM
Cc1cnc(/C=N/NC(N)=S)cn1,-,MIC bound,-,BACTEC,H37Rv,≤12.5 µg/mL
Cc1ccc(S(=O)(=O)n2cc(-c3ccc4c(n3)CC(C)(C)CC4=O)c3ccccc32)cc1,-,MIC,-,-,H37Rv,25 µg/mL
O=C1c2cc(F)ccc2-n2c1nc1ccccc1c2=O,-,MIC,-,-,MDR 10038,<1 µg/mL
CSc1ncc(C(=O)N2CCN(c3ncccc3NC(C)C)CC2)n1Cc1ccccc1,-,inhibition,6.25 µg/mL,resazurin,H37Rv,30%
Cc1ccc(S(=O)(=O)n2cc(-c3ccc4c(n3)CCC(C)(C)C4=O)c3ccccc32)cc1,-,MIC,-,-,H37Rv,>25 µg/mL

Repeating the first 10 entries:

SMILES,cells,measure,tested at,method,strain,value
O=c1nc2c(ncn2Cc2ccccc2)c(C#Cc2ccccc2)n1Cc1ccccc1,VERO,EC50,-,-,H37Rv,<12.5 µg/mL
COc1ccc(CSc2nc3ccc(C)cc3[nH]2)cc1,-,MIC,-,-,MY 332/88,>32 µM
COc1cc(C2=NN(C(=O)COc3ccc4ccccc4c3)C3CCCC23)c(C)cc1OCC(=O)O,-,MIC,-,-,Isoniazid-resistant,>6.25 µg/mL
CCCN1C(=O)CS/C1=N/NC(=O)c1c(C)nc2sccn12,-,MIC,-,-,H37Rv,>200 µg/mL
Cn1c(C(=O)NN)cc2cc(OCc3ccccc3)ccc21,-,MIC bound,-,BACTEC,H37Rv,>12.5 µg/mL
C[C@H]1[C@H](C)CC[C@]2(C(=O)O)CC[C@]3(C)C(CC[C@@H]4[C@@]5(C)C[C@H](O)CC(C)(C)[C@@H]5CC[C@]43C)[C@H]12,-,MIC,-,resazurin,INH-R (ATCC 35822),25 µg/mL
O=C(Nc1ccc(C(F)(F)F)cc1)C1(c2cccs2)CCOCC1,-,MIC99,-,turbidity,CDC1551,235 µM
FC(F)(F)c1nn2cc(C34CC5CC(CC(C5)C3)C4)nc2s1,-,MIC,-,resazurin,H37Rv,12 µM
O=C(Nc1ccc(Oc2ccccc2)cc1)C1(c2cccs2)CCOCC1,-,EC50,-,turbidity,CDC1551,34.41 µM
O=C(/N=C/c1cccc(Cl)c1)NCCCN1c2ccccc2Sc2ccccc21,-,inhibition,50 µg/mL,agar,H37Rv,34%

Conditions beyond the fields shown may differ between rows. MIC50, MIC90 and the like: level of inhibition, or share of isolates inhibited. MIC bound: limit read from a one-dose screen. Percent inhibition refers to the dose given; in toxicity tests it is the harm to the cells. ECn: concentration that inhibits the pathogen or its effect by n%.